# Key:
# [1] = general procedure: Fmoc solid-phase peptide synthesis; Rink-amide MBHA resin (0.48 mMole/g); HCTU / 4-methylmorpholine; conditions: whole synthesis
# [2] = general procedure: Fmoc solid-phase peptide synthesis; Rink-amide MBHA; HCTU / 4-methylmorpholine; conditions: whole synthesis, scale 0.1 mmol
# [3] = analytical HPLC combined with UHPLC/MS
Substance,"final HPLC purity [1, 3]",final HPLC purity ([1]; analytical HPLC and UPLC/MS),isolated yield [2]
H-YAibEGTFTSDYSIYLEK(OEG-OEG-γGlu-C20-OH)IAAQEFINWLLAGGPSSGAPPPS-NH2,92.18%,–,–
H-YAibEGTFTSDYSIYLEK(OEG-OEG-γGlu-C20-OH)IAAQEFINWLIAGGPSSGAPPPS-NH2,94.56%,–,–
H-YAibEGTFTSDYSIYLEK(OEG-OEG-γGlu-C20-OH)IAAQEFVNWLIAGGPSSGAPPPS-NH2,93.28%,–,–
H-YAibEGTFTSDYSIYLEK(OEG-OEG-γGlu-C20-OH)IAAQEFVNWLLAGGPSSGAPPPS-NH2,96.30%,–,–
H-YAibEGTFTSDYSIYK (OEG-OEG-γGlu-C20-OH) EKIAAQEFVNWLLAGGPSSGAPPPS-NH2,–,92.81%,18%
